# Potato spindle tuber viroid, loop 15: variant abundance in plants

Region: loop 15 of PSTVd (intermediate strain), upper and lower strand joined, each 5' to 3', the first 7 letters being the upper strand, closing pairs included. Wild type: GGAAACCGCUACUAC. Varied positions (N): GGAAACCGNNNNNNC.

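Three N. benthamiana plants were inoculated with the whole mutant pool. Samples came from the inoculated region at 5 days, the leaf margin at 10 and upper systemic leaves at 12.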

Values are reads per thousand in the sample; higher means more abundant, 0 means not found. Each value is the mean of three plants. "Pool" is the share in the plasmid pool used as inoculum, on the same scale. The inoculated region was read from the minus strand, the other sites from the plus strand.

- GGAAACCGACGCUAC (pool 0.224) = inoculated region 0.376; leaf margin 0.132; systemic leaves 0.0107
- GGAAACCGUCAGGUC (pool 0.144) = inoculated region 0.278; leaf margin 0.120; systemic leaves 0.0540
- GGAAACCGUCGUUAC (pool 0.192) = inoculated region 0.337; leaf margin 0.135; systemic leaves 0.0161
- GGAAACCGGCCUUAC (pool 0.176) = inoculated region 0.162; leaf margin 0; systemic leaves 0
- GGAAACCGCGGUACC (pool 0.192) = inoculated region 0.0922; leaf margin 0; systemic leaves 0
- GGAAACCGGUGGGCC (pool 0.192) = inoculated region 0.115; leaf margin 0.0134; systemic leaves 0
- GGAAACCGUAUAGAC (pool 0.288) = inoculated region 0.117; leaf margin 0.0175; systemic leaves 0.00537
- GGAAACCGUAGCAAC (pool 0.256) = inoculated region 0.0849; leaf margin 0; systemic leaves 0
- GGAAACCGACAUCCC (pool 0.240) = inoculated region 0.126; leaf margin 0; systemic leaves 0
- GGAAACCGAGGUCGC (pool 0.336) = inoculated region 0.120; leaf margin 0.00668; systemic leaves 0
- GGAAACCGCUCCUAC (pool 1.46) = inoculated region 0.748; leaf margin 0.910; systemic leaves 0.499
- GGAAACCGAUGACGC (pool 0.144) = inoculated region 0.0892; leaf margin 0.00668; systemic leaves 0
- GGAAACCGGAUAAAC (pool 0.208) = inoculated region 0.0857; leaf margin 0; systemic leaves 0
- GGAAACCGCUGCUGC (pool 0.176) = inoculated region 0.0622; leaf margin 0.00668; systemic leaves 0
- GGAAACCGAUCUCUC (pool 0.240) = inoculated region 0.159; leaf margin 0; systemic leaves 0.00537
- GGAAACCGAGUUAGC (pool 0.208) = inoculated region 0.138; leaf margin 0.00668; systemic leaves 0
- GGAAACCGUGCGGAC (pool 0.336) = inoculated region 0.348; leaf margin 0.0921; systemic leaves 0.0366
- GGAAACCGAGAAGUC (pool 0.0960) = inoculated region 0.110; leaf margin 0.0282; systemic leaves 0
- GGAAACCGACAGACC (pool 0.224) = inoculated region 0.0978; leaf margin 0.0121; systemic leaves 0
- GGAAACCGAACCCUC (pool 0.208) = inoculated region 0.103; leaf margin 0.0134; systemic leaves 0
- GGAAACCGUGGCCAC (pool 0.128) = inoculated region 0.134; leaf margin 0.0267; systemic leaves 0
- GGAAACCGAUUGUUC (pool 0.224) = inoculated region 0.351; leaf margin 0.118; systemic leaves 0.0847
- GGAAACCGGGAAUUC (pool 0.240) = inoculated region 0.450; leaf margin 0.175; systemic leaves 0.0107
- GGAAACCGGUCGGUC (pool 0.112) = inoculated region 0.105; leaf margin 0.00539; systemic leaves 0
- GGAAACCGUUGGUCC (pool 0.272) = inoculated region 0.304; leaf margin 0.126; systemic leaves 0.0107
- GGAAACCGCUUCUUC (pool 0.192) = inoculated region 0.159; leaf margin 0.00668; systemic leaves 0
- GGAAACCGCUCUCCC (pool 0.160) = inoculated region 0.376; leaf margin 0.00668; systemic leaves 0
- GGAAACCGUUUAGAC (pool 0.256) = inoculated region 0.0964; leaf margin 0.0328; systemic leaves 0
- GGAAACCGGGUUUAC (pool 0.256) = inoculated region 0.123; leaf margin 0; systemic leaves 0.00537
- GGAAACCGGUACUAC (pool 0.192) = inoculated region 29.1; leaf margin 16.2; systemic leaves 7.15
- GGAAACCGAGUUGUC (pool 0.240) = inoculated region 0.125; leaf margin 0.0128; systemic leaves 0
- GGAAACCGUUGGAGC (pool 0.288) = inoculated region 0.0984; leaf margin 0.00668; systemic leaves 0
- GGAAACCGUCCGCCC (pool 0.320) = inoculated region 0.0633; leaf margin 0.0148; systemic leaves 0.00537
- GGAAACCGUUAUUGC (pool 0.336) = inoculated region 0.382; leaf margin 0.120; systemic leaves 0.0790

3 of these entries, quoted again:

| sequence | pool | inoculated region | leaf margin | systemic leaves |
|---|---|---|---|---|
| GGAAACCGAGUUGUC | 0.240 | 0.125 | 0.0128 | 0 |
| GGAAACCGUAGCAAC | 0.256 | 0.0849 | 0 | 0 |
| GGAAACCGACAUCCC | 0.240 | 0.126 | 0 | 0 |

Samples held 43,870 to 66,106 reads, so the smallest values rest on one or two reads. Sequences that differ at fixed positions probably stem from PCR or sequencing errors, and defective variants can be carried along by functional ones. Wild type was 33.9 per thousand in the pool and the most common sequence in every sample (inoculated region 202, 200, 159; leaf margin 724, 746, 710; systemic leaves 856, 883, 880).

From the data files of Wu et al. 2024, doi:10.1371/journal.ppat.1012142.